Experimental data: ChEMBL document CHEMBL1133601, “Methyl-substituted dispiro-1,2,4,5-tetraoxanes: correlations of structural studies with antimalarial activity” (J Med Chem, 2000)

Key:
Plasmodium falciparum [1] = experiment: In vitro antimalarial activity against Plasmodium falciparum D6 (Sierra Leone); assay type: functional, organism-based
Plasmodium falciparum [2] = experiment: In vitro antimalarial activity against Plasmodium falciparum W2 (Indochina); assay type: functional, organism-based

`C1CCC2(CC1)OOC1(CCCCC1)OO2` was tested, and the IC50 (Plasmodium falciparum [1]) was 38 nM and the IC50 (Plasmodium falciparum [2]) was 26 nM.
